Measured values from several laboratories, pooled; numbers as filed in NIAID ChemDB.

Shared fields: tests in culture

A number after MIC or MFC names an inhibition level or a share of isolates. Two numbers with a dash give a range or band. Percent inhibition refers to the dose given; in toxicity tests it is the harm to the cells. ECn is the concentration giving n% inhibition of infection, replication or growth. An empty or dashed field is not shown. Lines come from different laboratories, so protocols vary.

structure,conditions,dose,changes,read by,strain,measure,organism,result
CO[C@H]1/C=C/O[C@@]2(C)Oc3c(C)c(O)c4c(=O)c(c5oc6cc(N7CCN(CC(C)C)CC7)cc(=O)c6nc5c4c3=C2O)NC(=O)/C(C)=C\C=C\[C@H](C)[C@H](O)[C@@H](C)[C@@H](O)[C@@H](C)[C@H](OC(C)=O)[C@@H]1C,,,,,Isolate 94-539,MIC,Mycobacterium ulcerans,0.012 µg/mL
CC(=O)N(CCN(C(C)=O)C(C)C)C(C)C,,250 µg/mL,,,ATCC 607,inhibition,Mycobacterium smegmatis,0%
CC[C@H]1OC(=O)[C@H](C)[C@@H](O[C@H]2C[C@@](C)(OC)[C@@H](O)[C@H](C)O2)[C@H](C)[C@@H](O[C@@H]2O[C@H](C)C[C@H](N(C)C)[C@H]2O)[C@](C)(OC)C[C@@H](C)C(=O)[C@H](C)[C@@H](O)[C@]1(C)O,,,,,ATCC 6841,MIC,Mycobacterium fortuitum,>8 µg/mL
Fc1cc(Nc2ncnc3ccccc23)ccc1N1CCc2sccc2C1,,,,luminescence,,MIC50,Mycobacterium bovis BCG,>20 µM
C=CCNC(=O)c1c(C)nc2ccccn12,,,,fluorescence,,MIC50,Mycobacterium ulcerans,>10 µg/mL
CC(C)=CCC/C(C)=C/CNc1ncnc2ccccc12,,,,luminescence,,MIC50,Mycobacterium bovis BCG,>20 µM
CN[C@@H]1[C@H](O[C@H]2[C@H](O[C@H]3[C@H](O)[C@@H](O)[C@H](N=C(N)N)[C@@H](O)[C@@H]3N=C(N)N)O[C@@H](C)[C@]2(O)C=O)O[C@@H](CO)[C@H](O)[C@H]1O,,,,broth dilution / resazurin,,MIC,Mycobacterium aurum,0.195 µg/mL
Cc1ccc(NC(=O)NNC(=O)c2ccncc2)cc1,14 d,,,broth dilution,My 6509/96,MIC100,Mycobacterium kansasii,62.5 µM
Fc1ccc2c(Nc3ccc(Oc4ccc(Cl)c(Cl)c4)cc3)ncnc2c1,,,,luminescence,,MIC50,Mycobacterium bovis BCG,>20 µM
CCCCCCCCCCCCCCCCCCCCCCOC(=O)NC(C)(CCC(=O)O)CCC(=O)O,,,,,AAy-P-1,MIC,Mycobacterium abscessus,576 µg/mL
FC(F)(F)c1cccc(Oc2ncnc3ccccc23)c1,,,,luminescence,,MIC50,Mycobacterium bovis BCG,>20 µM
O=c1oc2ccc(Cl)cc2c(=S)n1-c1cccc(F)c1,14 d,,,,6509/96,MIC,Mycobacterium kansasii,8 µM
C[C@H]1[C@H](C)CC[C@]2(C(=O)O)CC[C@]3(C)C(CC[C@@H]4[C@@]5(C)C[C@H](O)CC(C)(C)[C@@H]5CC[C@]43C)[C@H]12,,,,resazurin,,MIC,Mycobacterium simiae,>200 µg/mL
COc1ccccc1-c1c(-c2ccc(O)cc2O)n[nH]c1C(F)(F)F,,,,visual reading,,MIC,Mycobacterium marinum,>50 µg/mL
O=C(NNC(=O)c1ccncc1)Nc1ccc(F)c(C(F)(F)F)c1,21 d,,,broth dilution,My 6509/96,MIC100,Mycobacterium kansasii,125 µM
CCCCCCCCCCCCCCCCCCCCCC(=O)NC(CCC(=O)O)(CCC(=O)O)CCC(=O)O,,,,,mc155,MIC,Mycobacterium smegmatis,27 µg/mL
FC(F)(F)c1ccc(Oc2ccc(Nc3ncnc4[nH]ncc34)cc2)cc1,,,,luminescence,,MIC50,Mycobacterium bovis BCG,>10 µM
O=C1OC(CSc2ccccc2)Cc2cn(-c3ccccc3)c3cccc1c23,,,,visual reading,MC2 6230,EC50,Mycobacterium spp.,>100 µg/mL
NNC(=O)COC(Cn1nnnc1-c1ccccc1)c1ccc(Cl)cc1,,,,broth dilution,ATCC 21881,MIC,Mycobacterium luteus,>200 µg/mL
CCCCN(C(=O)Nc1ccc(F)cc1)[C@@H](CC(=O)OCC)C1O[C@@H]2OC(C)(C)O[C@@H]2[C@H]1OC,,,,,,MIC,Mycobacterium aurum,>25 µg/mL
Cc1ccc2oc(=O)n(-c3ccc(C(F)(F)F)cc3)c(=S)c2c1,21 d,,,,6509/96,MIC,Mycobacterium kansasii,32 µM
O=C(COC(Cn1nnnc1Cc1ccccc1)c1ccc(Cl)cc1)NNC(=S)Nc1ccc(Cl)cc1,,,,broth dilution,ATCC 21881,MIC,Mycobacterium luteus,>200 µg/mL
FC(F)(F)Oc1ccc(CCNc2ncnc3sccc23)cc1,,,,luminescence,,MIC50,Mycobacterium bovis BCG,>20 µM
O=c1[nH]c(=O)n([C@@H]2O[C@H](CO)[C@@H](O)[C@H]2O)cc1/C=C/Br,,50 µg/mL,,,ATCC 25291,inhibition,Mycobacterium avium,0%
CC1(C)N=C(N)N=C(N)N1OCCCOc1cc(Cl)c(Cl)cc1Cl,,,,,31 strains,MIC90,Mycobacterium avium complex,4 µg/mL
O=C(COC(Cn1nnnc1Cc1ccccc1)c1ccc(Cl)cc1)N/N=C/c1ccc(Cl)cc1,,,,broth dilution,ATCC 21881,MIC,Mycobacterium luteus,100 µg/mL
Fc1ccc2c(Nc3ccccc3Oc3ccc(C(F)(F)F)cc3)ncnc2c1,,,,luminescence,,MIC50,Mycobacterium bovis BCG,>50 µM
COc1ccc2oc(=S)n(-c3ccc(Cl)c(Cl)c3)c(=S)c2c1,14 d,,,,My 235/80,MIC,Mycobacterium kansasii,32 µM
COc1cccc(SCC2Cc3cn(-c4ccccc4)c4cccc(c34)C(=O)O2)c1,,,,visual reading,MC2 6230,EC50,Mycobacterium spp.,>100 µg/mL
CCCCCCCCCN(C)CCN(C)C,,60 µg/mL,,,ATCC 607,inhibition,Mycobacterium smegmatis,100%
Clc1ccc(C(Cn2nnnc2-c2ccccc2)OCc2nnc(Nc3ccccc3)o2)cc1,,,,broth dilution,ATCC 21881,MIC,Mycobacterium luteus,100 µg/mL
CCCCCCc1ccc(NC(=O)NNC(=O)c2ccncc2)cc1,21 d,,,broth dilution,My 6509/96,MIC100,Mycobacterium kansasii,125 µM
C[C@H]1COC2(CCN(c3nc(=O)c4cc(C(F)(F)F)cc([N+](=O)[O-])c4s3)CC2)O1,,,DprE1 mutant (G248S),fluorescence,recG,MIC,Mycobacterium bovis BCG,0.004 µM
FC(F)(F)c1cccc(-c2ccc(Nc3ncnc4ccccc34)cc2)c1,,,,luminescence,,MIC50,Mycobacterium bovis BCG,>50 µM
Cc1ccn2c(C(=O)NCc3ccc(N4CCN(c5ccc(C(F)(F)F)cc5)CC4)c(F)c3)c(C)nc2c1,,,,resazurin,ATCC 13950,MIC,Mycobacterium intracellulare,0.03125 µg/mL
Fc1cc(N2CCN(c3ccc(C(F)(F)F)cn3)CC2)ccc1CNc1ncnc2ccccc12,,,,luminescence,,MIC50,Mycobacterium bovis BCG,>20 µM
Cc1nc2ccc(Cl)cn2c1C(=O)NCc1ccc(N2CCOCC2)cc1,,,,fluorescence,,MIC50,Mycobacterium ulcerans,0.01–0.1 µg/mL
CCOc1cccc(CCNc2ncnc3ccccc23)c1,,,,luminescence,,MIC50,Mycobacterium bovis BCG,>20 µM
C=C(C)[C@H](O)COc1c2ccoc2cc2oc(=O)ccc12,,,,,,MIC,Mycobacterium aurum,64 µg/mL
Cc1ccc(NC(=O)c2ccc3cc(O)ccc3c2)cc1,,,,broth dilution,Clinical isolate CIT03 (MAP),MIC,Mycobacterium avium paratuberculosis,27 µM
CCCCCCCCCCCCN(C)CCN(C)C,,4 µg/mL,,,ATCC 607,inhibition,Mycobacterium smegmatis,100%
FS(F)(F)(F)(F)c1ccc(CNc2ncnc3ccoc23)cc1,,,,luminescence,,MIC50,Mycobacterium bovis BCG,>20 µM
COc1ccc2oc(=O)n(-c3ccc(C)cc3)c(=S)c2c1,21 d,,,,My 235/80,MIC,Mycobacterium kansasii,16 µM
COCc1cn([C@H]2C[C@H](O)[C@@H](CO)O2)c(=O)[nH]c1=O,,50 µg/mL,,,ATCC 25291,inhibition,Mycobacterium avium,0%
FC(F)(F)c1ccnc(Oc2ccc(Nc3ncnc4ccccc34)cc2)n1,,,,luminescence,,MIC50,Mycobacterium bovis BCG,>20 µM
S=c1oc2ccc(Br)cc2c(=S)n1-c1ccccc1,14 d,,,,My 235/80,MIC,Mycobacterium kansasii,2 µM
CO[C@H]1/C=C/O[C@@]2(C)Oc3c(C)c(O)c4c(O)c(c5c(c4c3C2=O)NC2(CCN(CC(C)C)CC2)N=5)=NC(=O)/C(C)=C\C=C\[C@H](C)[C@H](O)[C@@H](C)[C@@H](O)[C@@H](C)[C@H](OC(C)=O)[C@@H]1C,,,,,23-Feb,MIC,Mycobacterium avium intracellulare,0.5 µg/mL
O=C(NCc1cccs1)c1c(Cl)nc2ccccn12,,,,fluorescence,,MIC50,Mycobacterium ulcerans,0.1–1 µg/mL
O=c1[nH]c(=O)n([C@H]2C[C@H](O)[C@@H](CO)O2)cc1CO,,50 µg/mL,,,ATCC 25291,inhibition,Mycobacterium avium,0%
COc1ccc(NC(=O)NNC(=O)c2ccncc2)cc1,14 d,,,broth dilution,My 235/80,MIC100,Mycobacterium kansasii,>125 µM
COc1ccc(CCNc2ncnc3ccsc23)cc1,,,,luminescence,,MIC50,Mycobacterium bovis BCG,>50 µM
CCCCCCCCCCCCCCCOC(=O)NC(CCC(=O)O)(CCC(=O)O)CCC(=O)O,,,,,ATCC 927,MIC,Mycobacterium marinum,216 µg/mL
Cc1cn2c(C(=O)NCc3ccc(N4CCSCC4)c(F)c3)c(C)nc2s1,,,,resazurin,,MIC,Mycobacterium intracellulare,<2 µM
CCCCCCCCCCCCCCCCCCCCC(=O)NC(C)(CCC(=O)O)CCC(=O)O,,,,,ATCC 927,MIC,Mycobacterium marinum,14 µg/mL
CCCCN1C(=O)N(c2ccc(F)cc2)C(=O)C[C@H]1C1OC2OC(C)(C)OC2[C@H]1OC,,,,,,MIC,Mycobacterium aurum,>25 µg/mL
CC1COc2c(N3CCN(C)CC3)c(F)cc3c(=O)c(C(=O)O)cn1c23,,,,,ATCC 6841,MIC,Mycobacterium fortuitum,4 µg/mL
CC[C@H]1OC(=O)[C@H](C)[C@@H](O[C@H]2C[C@@](C)(OC)[C@@H](O)[C@H](C)O2)[C@H](C)[C@@H](O[C@@H]2O[C@H](C)C[C@H](N(C)C)[C@H]2O)[C@](C)(O)C[C@@H](C)CN(C)[C@H](C)[C@@H](O)[C@]1(C)O,,,,resazurin,ATCC 13950,MIC,Mycobacterium intracellulare,5 µg/mL
CCCCCCCCCCCCCCCCC(=O)NC(CCC(=O)O)(CCC(=O)O)CCC(=O)O,,,,,EO-P-1,MIC,Mycobacterium chelonae,27 µg/mL
COc1ccccc1-c1cn(CC2Cc3cn(-c4ccccc4)c4cccc(c34)C(=O)O2)nn1,,,,visual reading,MC2 6230,EC50,Mycobacterium spp.,>100 µg/mL
S=c1[nH]nc(COC(Cn2nnnc2-c2ccccc2)c2ccc(Cl)cc2)n1-c1ccc(Cl)cc1,,,,broth dilution,ATCC 21881,MIC,Mycobacterium luteus,100 µg/mL
NC1CCN(c2c(F)cc3c(=O)c(C(=O)O)cn(C4CC4)c3c2Cl)C1,,,,,25 isolates,MBC90,Mycobacterium fortuitum,2 µg/mL
Nc1ccc(S(=O)(=O)c2ccc(N)cc2)cc1,,,,,101,MIC,Mycobacterium avium complex,32 µg/mL
O=C(NNC(=O)c1ccncc1)Nc1ccc(Cl)c(Cl)c1,7 d,,,broth dilution,My 235/80,MIC100,Mycobacterium kansasii,125 µM
CCCCCCCC/C=C\CCCCCCCCN1C(=O)N(Cc2ccccc2)C(=O)C[C@H]1C1OC2OC(C)(C)OC2[C@H]1Oc1ccccc1,,,,,,MIC,Mycobacterium aurum,>25 µg/mL
O=c1[nH]c(=O)n([C@H]2C[C@H](O)[C@@H](CO)O2)cc1O,,50 µg/mL,,,ATCC 25291,inhibition,Mycobacterium avium,0%
O=C(NNC(=O)c1ccncc1)Nc1ccc(Cl)c(C(F)(F)F)c1,14 d,,,broth dilution,My 235/80,MIC100,Mycobacterium kansasii,125 µM
CC(C)(C)CC(C)(C)NCCNC(C)(C)CC(C)(C)C,,30 µg/mL,,,ATCC 607,inhibition,Mycobacterium smegmatis,100%
CCCCCOc1ccc(-c2n[nH]c(C(F)(F)F)c2-c2ccccc2Cl)c(O)c1,,,,visual reading,,MIC,Mycobacterium marinum,50 µg/mL
Cc1ccc2oc(=O)n(-c3cccc(Cl)c3)c(=S)c2c1,14 d,,,,6509/96,MIC,Mycobacterium kansasii,2 µM
CCOC(=O)C[C@@H](C1O[C@@H]2OC(C)(C)O[C@@H]2[C@H]1Oc1ccccc1)N(C(=O)Nc1cccc(C(C)=O)c1)C1CC1,,,,,,MIC,Mycobacterium aurum,>25 µg/mL
CS(C)=O,,,,resazurin,ATCC 13950,MIC,Mycobacterium intracellulare,>10 µg/mL
CCCCCCCCCCCCCCCCCCCCCCCOC(=O)NC(CCC(=O)O)(CCC(=O)O)CCC(=O)O,,,,,EO-P-1,MIC,Mycobacterium chelonae,72 µg/mL
CC[C@H]1OC(=O)[C@H](C)[C@@H](O[C@H]2C[C@@](C)(OC)[C@@H](O)[C@H](C)O2)[C@H](C)[C@@H](O[C@@H]2O[C@H](C)C[C@H](N(C)C)[C@H]2O)[C@](C)(O)C[C@@H](C)CN(C)[C@H](C)[C@@H](O)[C@]1(C)O,,,,,25 isolates,MBC90,Mycobacterium fortuitum,>8 µg/mL
Cc1nc(Nc2ccc(Oc3cccc(C(F)(F)F)c3)cc2)c2ccccc2n1,,,,luminescence,,MIC50,Mycobacterium bovis BCG,>20 µM
Oc1cc(OCc2ccccc2Cl)ccc1-c1n[nH]c(C(F)(F)F)c1-c1ccc(Cl)cc1,,,,visual reading,,MIC,Mycobacterium marinum,50 µg/mL
O=c1[nH]c(=O)n([C@@H]2O[C@H](CO)[C@@H](O)[C@H]2O)cc1O,,50 µg/mL,,,ATCC 25291,inhibition,Mycobacterium avium,0%
Fc1cccc2c(Nc3ccc(Oc4ccc(C(F)(F)F)cc4)cc3)ncnc12,,,,luminescence,,MIC50,Mycobacterium bovis BCG,>50 µM
COc1ccc(-c2n[nH]c(C(F)(F)F)c2-c2ccccc2)c(O)c1,,,,visual reading,,MIC,Mycobacterium marinum,>50 µg/mL
FC(F)(F)Oc1ccc(C2CCN(c3ccc(CNc4ncnc5ccccc45)cc3)CC2)cc1,,,,luminescence,,MIC50,Mycobacterium bovis BCG,>20 µM
O=C(NCC(O)c1ccccc1C(F)(F)F)c1c(Cl)nc2ccccn12,,,,fluorescence,,MIC50,Mycobacterium ulcerans,1–10 µg/mL